# Laboratory results taken from patent US20220153704A1 (priority 2019, published 2022).
# Test: Evaluation of solid state stability (XRPD and HPLC after storage)
compound,measurement,setting,value
"CCN1C[C@]2(COC)CC[C@H](OC)[C@]34C5C[C@]6(O)[C@@H](OC)C[C@@](OC(C)=O)(C5[C@H]6OC(=O)c5ccc(OC)cc5)[C@H](C13)[C@H](OC)[C@H]24 (stereo partly drawn) [crystalline form E, (1α,6α,14α,16β)tetrahydro-8,13,14-triol-20-ethyl-1,6,16-trimethoxy-4-methoxymethyl-8-acetoxy-14-(4′-p-methoxybenzyl)-aconitane]",HPLC purity Area %,"25° C./60% RH, 1 month, open",99.53%
same,HPLC purity Area %,"25° C./60% RH, 1 week, open",99.48%
same,HPLC purity Area %,"40° C./75% RH, 1 month, open",99.47%
same,HPLC purity Area %,"40° C./75% RH, 1 week, open",99.49%
same,HPLC purity Area %,"80° C., 24 hours, sealed",99.34%
same,change of chemical purity (HPLC),all selected test conditions of Table 4,has not changed
